One series concerns L. donovani LV82. Description: Murine visceral leishmaniasis model.
In series [1] the test system is L. donovani axenic amastigotes. The settings on record: presence vs absence of folinic acid.
For series [2] the following is noted: pH 7.4 vs pH 4.0.
Series [3] relates to J774A.1 (mouse macrophage cell line).
The subject of another series is visceral leishmaniasis. The settings on record: cited from earlier work.
Series [4] deals with L. donovani MHOM/NP/02/BPK164/1. The settings on record: originally found; cited from earlier work.

Where two headings read alike, the source gives them in different places.

The text below walks through data of PMC4216219 (Journal of Medicinal Chemistry, 2014).

Consider `CNc1nc(NCc2ccccc2)nc2ccccc12` [Compound 15, N^2-Benzyl-N^4-methylquinazoline-2,4-diamine], for which the “antileishmanial efficacy (liver parasitemia)” value in the series on L. donovani LV82 (5 × 30 mg/kg ip) is “did not show significant antileishmanial efficacy”.

On to `CCCCCCCCCCCCCCCCOP(=O)([O-])OCC[N+](C)(C)C` [miltefosine], for which the “effect of folinic acid on EC50, L. donovani axenic amastigotes” value (shortened to “effect of folinic acid on EC50”) in series [1] was “not affected”.

Consider `CCCCNc1nc(NCc2ccccc2)nc2ccccc12` [Compound 16, N^2-Benzyl-N^4-butylquinazoline-2,4-diamine], for which, in series [2], the “decrease in permeability from neutral to acidic pH” value turned out to be 3 fold. Further, the “parasite burden vs vehicle control group” value in the series with L. donovani LV82 (5 × 10 mg/kg ip, 45% HPβCD vehicle) is “no significant difference”.

`CCc1nc(N)nc(N)c1-c1ccc(Cl)cc1` [pyrimethamine, reference compound]: the “effect of folinic acid on EC50” value in series [1] is recorded as “dramatically increased the EC50 values”.

As to `CN(Cc1cnc2nc(N)nc(N)c2n1)c1ccc(C(=O)N[C@@H](CCC(=O)O)C(=O)O)cc1` [methotrexate, reference compound], the “effect of folinic acid on EC50” value in series [1] is “dramatically increased the EC50 values”.

`c1ccc(CNc2nc(NCc3ccccc3)c3ccccc3n2)cc1` [Compound 10, N^2,N^4-Dibenzylquinazoline-2,4-diamine]: the half-maximal effective concentration (EC50) in series [3] (J774.A1, read-out: EC50 J774A.1 in the absence of folinic acid) is 84.2 ± 2.8 µM; in series [3] (J774.A1, read-out: EC50 J774A.1 in the presence of folinic acid), 84.8 ± 2.2 µM.

As to `C[C@@H]1[C@H](O)[C@@H](C)/C=C/C=C/C=C/C=C/C=C/C=C/C=C/[C@H](O[C@@H]2O[C@H](C)[C@@H](O)[C@H](N)[C@@H]2O)C[C@@H]2O[C@](O)(C[C@@H](O)C[C@@H](O)[C@H](O)CC[C@@H](O)C[C@@H](O)CC(=O)O[C@H]1C)C[C@H](O)[C@H]2C(=O)O` [Amphotericin B], the cure rate result in the series on visceral leishmaniasis is “over 90%”.

For `O.O.O.O.O.O.O.O.O.O=C([O-])[C@@H]1[O][Sb](=[O])([O][Sb]2(=[O])[O][C@H]([C@H](O)CO)[C@H](O)[C@H](C(=O)[O-])[O]2)[O][C@H]([C@H](O)CO)[C@@H]1O.[Na+].[Na+].[Na+]` (stereo partly drawn) [sodium stibogluconate], the “fold resistance of BPK164/1 compared to reference strain BPK206/0” value in series [4] is on record as 6 fold.

As for `Cc1ccc2c(NCc3ccco3)nc(NC(C)C)nc2c1` [Compound 23, N^4-(Furan-2-ylmethyl)-N^2-isopropyl-7-methylquinazoline-2,4-diamine], the “decrease in permeability from neutral to acidic pH” value in series [2] is reported as around 12 fold. Moreover, in the series with L. donovani LV82 (5 × 15 mg/kg ip, compared to the vehicle control), the “inhibition of liver parasitemia” value amounted to 37%.

A word on the EC50: it is the midpoint of the concentration-response curve.
